Laboratory results as given in US20120121591A1 (priority 2009, published 2012).

Test system: rat peritoneal mast cells

With “Monovalent aKLH HC-ShK(1-35 Q16K) Ab: anti-KLH IgG2 antibody with [Lys16]ShK fused to the C-terminus of one heavy chain” the “Degranulation / histamine release of rat peritoneal mast cells” value was “caused degranulation”.
